Laboratory results from ChEMBL document CHEMBL5108080 (J Med Chem, 2022).

System: Influenza A virus
Assay: Antiviral activity against group 2 influenza A virus LPAI H7N7 (A/Netherlands/219/2003) infected in human A549 cells assessed as inhibition of viral entry preincubated with compound for 30 mins followed by viral infection for 1 hour further incubated for 48 hrs with replacement of fresh medium containing compound
Conditions: strain LPAI H7N7 (A/Netherlands/219/2003)

Compound: Brc1ccc(-c2nc3ncccn3c2NC2CCCCC2)cc1
- EC50: 200 nM

Compound: c1ccc(-c2nc3ncccn3c2NC2CCCCC2)cc1
- EC50: 250 nM
